Anti-infective test results gathered from many reports (values: NIAID ChemDB through PubChem).

Shared fields: growth or infection tests; agent: Mycobacterium avium; endpoint: MIC90

Blank or dashed fields: not listed here.

compound	strain	value
CCCCCCCCC#Cc1cn([C@H]2C[C@H](O)[C@@H](CO)O2)c(=O)[nH]c1=O	-	>100 µg/mL
N/C(=N\NC(CC(=O)c1cccc(Cl)c1)c1ccncc1)c1ccccn1	17 strains	80 µg/mL
CCCCCC#Cc1cn([C@H]2C[C@H](O)[C@@H](CO)O2)c(=O)[nH]c1=O	-	>100 µg/mL
N/C(=N\NC(CC(=O)c1cccc(Br)c1)c1ccccn1)c1ccccn1	17 strains	80 µg/mL
CO[C@H]1/C=C/O[C@@]2(C)Oc3c(C)c(O)c4c(O)c(c(/C=N/N5CCN(C6CCCC6)CC5)c(O)c4c3C2=O)NC(=O)/C(C)=C\C=C\[C@H](C)[C@H](O)[C@@H](C)[C@@H](O)[C@@H](C)[C@H](OC(C)=O)[C@@H]1C	36 strains	50 µg/mL
CCS/C(N)=N\N=C\c1ccc(C(F)(F)F)cc1	Clinical isolates	6.25 µg/mL
Cc1ccc(C(=O)CC(N/N=C(\N)c2ccccn2)c2ccncc2)cc1	17 strains	320 µg/mL
CC1COc2c(N3CCN(C)CC3)c(F)cc3c(=O)c(C(=O)O)cn1c23	18 strains	50 µg/mL
N/C(=N\NC(CC(=O)c1ccccc1)c1ccncc1)c1ccccn1	17 strains	160 µg/mL
CC(C)N1CCN(c2cc3c(cc2F)c(=O)c(C(=O)O)cn3C2CC2)CC1	-	8 µg/mL
CC1COc2c(N3CCN(C)CC3)c(F)cc3c(=O)c(C(=O)O)cn1c23	36 strains	12.5 µg/mL
O=C(O)c1cn(C2CC2)c2cc(N3CCN(Cc4ccccc4)CC3)c(F)cc2c1=O	-	>16 µg/mL
N/C(=N\NC(CC(=O)c1ccc(Cl)c(Cl)c1)c1ccccn1)c1ccccn1	17 strains	32 µg/mL
CC[C@H]1OC(=O)[C@H](C)[C@@H](O[C@H]2C[C@@](C)(OC)[C@@H](O)[C@H](C)O2)[C@H](C)[C@@H](O[C@@H]2O[C@H](C)C[C@H](N(C)C)[C@H]2O)[C@](C)(OC)C[C@@H](C)C(=O)[C@H](C)[C@@H](O)[C@]1(C)O	36 strains	25 µg/mL
Cc1cccc(C(=O)CC(N/N=C(\N)c2ccccn2)c2cccnc2)c1	17 strains	320 µg/mL
Cc1c(F)c(N2CCNC(C)C2)cc2c1c(=O)c(C(=O)O)cn2C1CC1	36 strains	12.5 µg/mL
NC[C@H]1O[C@H](O[C@H]2[C@H](O)[C@@H](O[C@H]3O[C@H](CO)[C@@H](O)[C@H](N)[C@H]3O)[C@H](N)C[C@@H]2N)[C@H](O)[C@@H](O)[C@@H]1O	100 strains	9.15 µg/mL
CC1COc2c(C3(N)CC3)c(F)cc3c(=O)c(C(=O)O)cn1c23	36 strains	100 µg/mL
CN1CCN(c2c(F)cc3c(=O)c(C(=O)O)cn(CCF)c3c2F)CC1	ATCC 15769	100 µg/mL

For reference, 2 entries again:

| compound | strain | value |
|---|---|---|
| CC(C)N1CCN(c2cc3c(cc2F)c(=O)c(C(=O)O)cn3C2CC2)CC1 | - | 8 µg/mL |
| CC1COc2c(N3CCN(C)CC3)c(F)cc3c(=O)c(C(=O)O)cn1c23 | 18 strains | 50 µg/mL |

Rows are shuffled and stem from different studies. A number after MIC or MFC names an inhibition level or a share of isolates.